# From patent US20230183310A1 (Shenzhen Turier Biotech Co., Ltd., priority 2020, published 2023)
# Test: general procedure: Fmoc solid-phase peptide synthesis; Rink amide resin; benzotriazole-N,N,N',N'-tetramethyluronium hexafluorophosphate, 1-hydroxybenzotr
# Conditions: whole synthesis, scale of the general procedure 0.25 mol
substance,measurement,value
His-Aib-Gln-Gly-Thr-Phe-Thr-Ser-Asp-Lys(PEG2-PEG2-γGlu-CO(CH2)18CO2H)-Ser-Lys-Tyr-Leu-Glu-Aib-Lys-Ala-Ala-Gln-Asp-Phe-Val-Glu-Trp-Leu-Lys-Ala-Gly-Gly-Pro-Ser-Ser-Gly-Ala-Pro-Pro-Pro-Ser-NH2,final HPLC purity,>95%
